Measurements published in PubChem BioAssay AID493005 (National Center for Advancing Translational Sciences (NCATS), 2010).
This is a selection; strong and weak results do not stand in their true shares. The source made the active and inactive calls. Calls come from the whole dose curve; as a rule, active = well fitted inhibition curve with a large enough effect in the main read-out, with a control signal flat (not every such curve was filed as active); inconclusive = small, poorly fitted or top-dose-only effect, or effect the other way, or a change in a side signal; inactive = no such curve, though single readings can be large or run the other way.

By UniProt entry, the sequences of proteins in these tests, tags left out. Where a name states a change or a piece, a line headed by the entry shows the natural chain unless it says otherwise.
UniProt Q99816: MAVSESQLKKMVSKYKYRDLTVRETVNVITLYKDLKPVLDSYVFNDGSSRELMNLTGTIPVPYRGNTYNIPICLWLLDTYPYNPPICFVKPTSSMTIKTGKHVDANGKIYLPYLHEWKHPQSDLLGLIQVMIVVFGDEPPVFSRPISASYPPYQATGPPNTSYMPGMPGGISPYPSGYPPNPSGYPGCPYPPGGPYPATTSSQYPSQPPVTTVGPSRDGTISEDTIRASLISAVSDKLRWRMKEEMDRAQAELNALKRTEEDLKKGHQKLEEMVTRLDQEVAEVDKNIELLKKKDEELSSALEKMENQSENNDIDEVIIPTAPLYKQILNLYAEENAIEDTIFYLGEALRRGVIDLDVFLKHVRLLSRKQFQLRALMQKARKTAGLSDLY

These molecules were tested against Tumor susceptibility gene 101 protein (Homo sapiens) (UniProt Q99816) (assay: qHTS Assay for Iinhibitors of HIV-1 Budding by Blocking the Interaction of PTAP/TSG101). Conditions: Fluorescence polarization, FITC-PTAP peptide / Tsg101 binding; at 115 µM (top of the series).
Source text: NIH Molecular Libraries Probe Production Network [MLPCN] NIH Chemical Genomics Center [NCGC] MLPCN Grant: 1 R03 MH087464-01A1 PI Name: Dr. Eric Freed, NCI NCGC Assay Overview: Stages of the HIV-1 replication cycle, specifically virus assembly and release, provide underexploited targets for the development of novel antiviral inhibitors. The late stages of HIV-1 replication are mediated by the Gag precursor protein, Pr55Gag. Expression of Pr55Gag is both necessary and sufficient for the production of virus-like particles from Gag-expressing cells. The Gag protein hijacks key host proteins involved in endocytic machinery of the host cell to promote endosomal processing and viral budding. The budding process requires a direct interaction between a […] (PTAP) motif in the p6 domain of Gag and the cellular endosomal sorting protein known as Tsg101. In this way, the Gag PTAP motif promotes the host cells to recruit viral particles to the plasma membrane where the new viral particles are released, effectively turning the host cells into viral factories. A fluorescence anisotropy assay has been developed to quantitatively measure the PTAP-Tsg101 interaction which can be used to screen for inhibitors of this interaction.
NCGC Assay Protocol Summary: Two uL of the Tsg101 binding domain in buffer (10 mM HEPES pH 7.5; 0.15 M NaCl, 0.01% Tween 20; 3 mM EDTA;0.1 mM TCEP) was dispensed into Greiner black MB 1536-well plates (final concentration 10 uM). Then, 23 nL of compounds or DMSO were delivered to each well using a pin tool. Finally, 2 uL of a FITC-labeled peptide containing the PTAP motif (1) in the same buffer was dispensed (50 nM final concentration) and the binding was allowed to proceed for 20 min. at r.t. Fluorescent polarization was determined using FITC excitation and polarized emission filters on a Perkin Elmer Viewlux. Keywords: Tsg101, PTAP, Gag, HIV, fluorescent polarization, MLSMR, MLPCN, NIH Roadmap, qHTS, NCGC
Note: % of control where 0% means no effect.

Compound | activity change, negative = inhibition
Cc1cccc(OCC(=O)OC2CN3CCC2CC3)c1 (stereo not given) | inactive: -0.579%
O=[As](O)(c1cccc(O)c1)c1cccc(O)c1 | inactive: 1.27%
CS(=O)(=O)c1ccc(Cl)c(NC(=O)COC(=O)C(O)(c2ccccc2)c2ccccc2)c1 | inactive: -4.29%
O=[As](O)(O)c1cccnc1 | inactive: -1.06%
COc1cc(C(=O)NCC2(N3CCOCC3)CCCCC2)cc(Cl)c1OC(C)C | inactive: -0.197%
O=C(OC1CN2CCC1CC2)c1ccc(Cl)cc1 (stereo not given) | inactive: -0.2%
CC1(CBr)Cn2c(nc3ccccc3c2=O)S1 (stereo not given) | inactive: -7.52%
CC(C)/C=N\N=C(\N)N[N+](=O)[O-] | inactive: 0.378%
CN(C(=O)Cc1ccc(Cl)c(Cl)c1)[C@@H]1CCCC[C@H]1N1CCCC1 | inactive: -6.53%
COc1ccccc1CNC(=O)COC(=O)C(O)(c1ccccc1)c1ccccc1 | inactive: -2.54%
CC(C)(C)C(=O)NC(Sc1ncccn1)C(Cl)(Cl)Cl (stereo not given) | inactive: 1.54%
Clc1n[nH]nc1-c1nn[nH][15n]1 | inactive: -10.8%
CCOP(=O)(Nc1ccc(C)cn1)OCC | inactive: -0.492%
CN(CCCl)Cc1cc(Cl)c(NC2=NCCN2)c(Cl)c1 | inactive: -6.39%
CCOP(=O)(NC(=NC(C)c1ccccc1)NC(C)c1ccccc1)OCC (stereo not given) | inactive: -6.93%
O=P1(Nc2ccccn2)COc2ccccc2OC1 | inactive: -4.91%
CCC1=CC2Cc3nc4ccc(Cl)cc4c(N)c3C(C1)C2 (stereo not given) | inactive: -3.58%
Cc1ccc(OCC(=O)OC2CN3CCC2CC3)cc1 (stereo not given) | inactive: -4.29%
O=[As](O)(c1cccs1)c1cccs1 | inactive: -0.824%
O=P1(Nc2ccc(Br)cn2)COc2ccccc2OC1 | inactive: -7.94%
NS(=O)(=O)c1cccc(NC(=O)COC(=O)C(O)(c2ccccc2)c2ccccc2)c1 | inactive: -0.576%
Nc1cccc([As](=O)(O)c2ccccc2)c1 | inactive: -4.07%

Compound | activity change, negative = inhibition
O=P1(Nc2ncccn2)COc2ccccc2OC1 | inactive: 0.106%
CCCC1OP(=O)(Nc2ccccc2)OCC1CC (stereo not given) | inactive: -0.345%
O=C(/C=C/c1ccccc1)OC1CN2CCC1CC2 (stereo not given) | inactive: -0.293%
CN(C)C1(CNC(=O)c2ccc(S(C)(=O)=O)cc2)CCCCC1 | inactive: -2.3%
CC1CCC(C(C)C)C(OP(=O)(Nc2ccccn2)c2ccccc2)C1 (stereo not given) | inactive: -1.92%
Cc1ccc(C(=O)OC2CN3CCC2CC3)cc1 (stereo not given) | inactive: 0.452%
Cc1nn(-c2ccccc2)c2c1P(=O)(N1CCOCC1)N(C)C(c1ccccc1)=N2 (stereo not given) | inactive: -12.1%
O=[N+]([O-])c1ccc(Nc2ccc(Oc3ccc([N+](=O)[O-])cc3[N+](=O)[O-])cc2)c([N+](=O)[O-])c1 | inactive: -9.47%
O=P(Nc1ccccn1)(c1cccc2ccccc12)c1cccc2ccccc12 | inactive: -1.5%
Cc1cc(SC(NC=O)C(Cl)(Cl)Cl)ncn1 (stereo not given) | inactive: -0.391%
CCOC(=O)Nc1cccc([As](=O)(O)O)c1 | inactive: -3.09%
Cc1cc(SC(NC(=O)c2ccccc2)C(Cl)(Cl)Cl)nc(C(C)C)n1 (stereo not given) | inactive: 0.427%
CCCCOc1ccc(C(=O)NCC2(N3CCCCC3)CCCCC2)cc1OC | inactive: -1.24%
CC1CCNP(=O)(N(CCCl)CCCl)O1 (stereo not given) | inactive: 1.48%
CCOC(=O)Nc1ccc([As](=O)(O)O)c(O)c1 | inactive: -0.211%
CCC(C)N(CC(C)C)C(=S)SC(NC(C)=O)C(Cl)(Cl)Cl (stereo not given) | inactive: -6.38%
CCOC(=O)c1ccc(NC(=O)C(C)(CCl)SC)cc1 (stereo not given) | inactive: 0.947%
O=C(OC1CN2CCC1CC2)c1cccc([N+](=O)[O-])c1 (stereo not given) | inactive: 0.455%
O=C(Nc1ccncc1[N+](=O)[O-])c1ccc([N+](=O)[O-])cc1[N+](=O)[O-] | inactive: -2.83%
O=C(COc1ccccc1)OC1CN2CCC1CC2 (stereo not given) | inactive: -2.68%
COP1(=S)c2c(C)nn(CCC#N)c2N=C(c2ccc(F)cc2)N1C (stereo not given) | inactive: -7.85%
COc1ccc(N/C(=N/P(=O)(N2CCOCC2)N2CCOCC2)N2CCOCC2)cc1 | inactive: -0.702%

Compound | activity change, negative = inhibition
O=[N+]([O-])c1cc(Oc2ccc([N+](=O)[O-])cc2C(F)(F)F)cc([N+](=O)[O-])c1 | inactive: -3.42%
COc1cc(I)ccc1[As](=O)(O)O | inactive: -11.6%
COc1ccc2nc(NP(=O)(c3ccccc3)c3ccccc3)sc2c1 | inactive: -6.28%
O=P1(N(CCCl)CCCl)OCCCN1CCCl (stereo not given) | inactive: 1.62%
O=P1(N(CCCl)CCCl)Nc2ccccc2N1 | inactive: -3.8%
Cc1cc(=O)[nH]c(N[N+](=O)[O-])n1 | inactive: -1.41%
O=C(OC1CN2CCC1CC2)C12CC3CC(CC(C3)C1)C2 (stereo not given) | inactive: 1.3%
Cc1c2c(nc3ccccc13)SC(C(Cl)Cl)C2 (stereo not given) | inactive: 0.826%
O=[N+]([O-])c1cc([N+](=O)[O-])c(-c2ccn[nH]2)s1 | inactive: 98.6%
CC(C)NC(=O)NP(=O)(Oc1ccccc1)Oc1ccccc1 | inactive: -3.03%
CCN(CC)C(=S)SC(NC=O)C(Cl)(Cl)Cl (stereo not given) | inactive: -0.631%
O=C(OC1CN2CCC1CC2)c1cccc2[nH]cnc12 (stereo not given) | inactive: 0.0175%
COC(=O)C1(C)COP(=O)(N2CCCCCC2)OC1 (stereo not given) | inactive: -0.192%
CC(C)c1ccc(OP(=O)(Nc2ccccn2)Oc2ccccc2F)cc1 (stereo not given) | inactive: -4.73%
ClCCSc1nnc(-c2cccnc2)o1 | inactive: -12.3%
Cc1ccc2nc3c(c(C)c2c1)CC(C(Cl)Cl)S3 (stereo not given) | inactive: 0.0718%
Cc1ccc(OP(=O)(Nc2ccc([N+](=O)[O-])cn2)Oc2ccc(C)cc2)cc1 | inactive: -5.55%
O=[N+]([O-])c1ccc(-c2cc([N+](=O)[O-])c(O)c([N+](=O)[O-])c2)cc1 | inactive: -13.2%
COc1cc(C(=O)NCC2(N3CCOCC3)CCCCC2)ccc1OCC(C)C | inactive: -2.44%
O=[As](O)(c1ccc(O)cc1)c1ccccc1O | inactive: -2.23%
C[As](=O)(O)c1cccc(C(=O)O)c1 | inactive: -3.17%
